## Library screen at single concentrations

Measurements from “University of Dundee, Small-Polar-MMV Screening Library” (2021), ChEMBL document CHEMBL3988442.

A: 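Growth of Mycobacterium tuberculosis over 3 days (7H9 medium with glucose and tyloxapol); the read-out is not stated. Concentration: 500 µM. Higher reads as more growth inhibition (inferred: compounds with an IC50 in retests scored well above the rest). Size under these conditions: about 18,000 compounds, about 1,400 of them at 50% or above in at least one test.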
B: 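Growth of Mycobacterium tuberculosis over 4 days (cholesterol / DPPC medium with tyloxapol); the read-out is not stated. Tested at 500 µM. Direction is inferred from retests: higher values go with more growth inhibition. About 18,000 compounds were tested under these conditions; 5% (about 900) showed 50% or more at least once.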

The filed quantity is “Percent Effect” (%).
The record does not define 0% and 100%; most values in the screen are far below 50% and negative numbers occur (in some assays of this library far below -100).
This is part of a subset picked to be rich in strong results.

Compound: CN(C)S(=O)(=O)Nc1ccccn1
A: 7.457%
B: 8.151%

Compound: CN(Cc1ccc(Cl)s1)C(=O)C1CCN(C(N)=O)CC1
A: 50.27%

Compound: NC(=O)CN1C(=O)CC2(CCCCC2)CC1=O
A: -8.551%

Compound: COC(=O)CCn1cc(C(N)=O)cn1
B: -0.5961%

Compound: C[S+]([O-])c1nncn1CCCOc1ccc(C#N)cc1 (centres unmarked)
A: 19.55%

Compound: CN(C)S(=O)(=O)CCCN1CCCCC1c1nccs1 (centres unmarked)
A: 7.646%

Compound: CC(C)c1ccnc(N2CCOC(CCN)C2)n1 (centres unmarked)
A: 34.36%

Compound: CCN1CCN(C(=O)CN2CCCCCCC2=O)CC1
A: 12.23%

Compound: COCCNCCNC(=O)c1cnn(C)c1
A: -1.094%

Compound: CC(C)NC(=O)NCCN(C)C1CCCC1
A: -1.647%

Compound: Cn1ncnc1CNS(=O)(=O)c1c(F)cccc1Br
A: -4.111%

Compound: CCc1nncn1C1CCNCC1
A: -8.966%

Compound: CSCc1noc(CN2CCN(C)C(CCO)C2)n1 (centres unmarked)
A: 1.869%

Compound: Nc1nc2ccc(C(=O)N3CCNCC3)cc2o1
A: 8.672%

Compound: O=C1NCC(C(=O)NCc2cc(F)cc(Br)c2)N1 (centres unmarked)
A: 12.82%

Compound: Cc1ccc(C(=O)Nc2ccncc2F)cn1
A: 21.79%

Compound: CCN(CCn1cccn1)C(=O)c1cc(CO)ccn1
A: 0.8347%

Compound: C=C(C)CNC(=O)Nc1ccn(-c2ncccc2Cl)n1
A: -7.725%

Compound: O=C(NC1CCCc2ccccc21)c1ccncc1 (centres unmarked)
A: 73.78%

Compound: CC1(C)OCCC1CN (centres unmarked)
A: -0.277%

Compound: COc1ccc(CN(C)CC(N)=O)c(Br)c1OC
B: 18.49%

Compound: OCCN1CCN(c2nc(-c3ccccc3)no2)CC1
A: 59.47%
B: 60.11%

Compound: CNc1snc(C)c1C(=O)NCc1cccnc1
A: 22.86%

Compound: O=S(=O)(CCc1ccccc1)NCCCO
A: 11.65%

Compound: CC1Sc2ccc(C(=O)N(C)C)cc2NC1=O (centres unmarked)
A: 5.589%
B: 5.484%

Compound: O=C(CC1COCCN1)N1CCC(c2ncc[nH]2)CC1 (centres unmarked)
A: -7.068%

Compound: CC(C)OCCCNC(=O)C1CCNC1 (centres unmarked)
A: -2.413%

Compound: CN(C(=O)c1cccnc1)C1CCc2ccccc21 (centres unmarked)
B: 17.07%

Compound: CCOc1cccc(CN(C)S(=O)(=O)c2cccs2)n1
A: 77.93%
B: 76.27%

3 of the entries, repeated:

CC1Sc2ccc(C(=O)N(C)C)cc2NC1=O (centres unmarked) gave A: 5.589%; B: 5.484%.
CCc1nncn1C1CCNCC1 gave A: -8.966%.
CN(C)S(=O)(=O)CCCN1CCCCC1c1nccs1 (centres unmarked) gave A: 7.646%.